Data on one sequence can be found in publication PMC7797058, “Characterization of the first tetrameric transcription factor of the GntR superfamily with allosteric regulation from the bacterial pathogen Agrobacterium fabrum” (Nucleic Acids Research, 2020).

The data set deals with T1, Atu1419-H3A H141A,H192A,H214A (Agrobacterium fabrum C58) (UniProt A9CJ36).
T1 sequence (looked up): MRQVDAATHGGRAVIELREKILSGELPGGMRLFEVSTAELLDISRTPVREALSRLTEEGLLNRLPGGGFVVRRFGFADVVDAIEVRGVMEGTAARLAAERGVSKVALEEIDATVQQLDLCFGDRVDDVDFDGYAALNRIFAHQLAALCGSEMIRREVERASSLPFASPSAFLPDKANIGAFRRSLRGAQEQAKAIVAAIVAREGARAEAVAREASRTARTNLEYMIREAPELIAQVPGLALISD
Kind of data set: EMSA. The conditions noted are these: EMSA: 50 mM Tris-HCl pH 8, 150 mM NaCl, 30 nM DNA, 30 min at room temperature; gel 6% or 12% PAGE in TBE at 4 C; recombinant protein; residues 1-244; protein details: C-terminal 6xHis; probe letters rebuilt from the primers and the genome. On the technique in general: A gel shift assay detects complexes by their altered migration in electrophoresis.

Tags and fusion partners may be left off the protein sequences shown.

With “CCATGTGTCGCAGCATCCACCTGCCTCATATCTCACCCCTTCCATCCACCGGAGCGCCGCCATCAACGACATCGAGCACGCTTATTCAAGCGACATGCCATGTATACATTAGCAACTCAAGCAACAGGACACAGAACTTCACCACCGACAGGACATGCCGCCTCCCTTTGAAATCGCACAGAAATCATAGGCTAAACCGACACCATCGCATCAACATGTATTCATTCAATCTAATTAAGATTAAATAATTCGTCAATATTCTTGGTTTTTCGCAAAATTTTGATTGAAGTAGCCGTTTCATGTATACATAATCAGGTCTCGCTAAGGGAGAAAGCGATGGGTTGGTCGAGTTTTTGGGATAATTCCGGTG (double strand) [Patu1418-1419]”, the binding result is recorded as “binds”.
